A mixed list of measured activities; the numbers were collected in NIAID ChemDB.

Common to all: whole-cell or culture tests; species: Mycobacterium tuberculosis

a–b is a range or a potency band. Inhibition is in % at the dose shown (toxicity tests: loss of growth or viability). ECn is the concentration giving n% inhibition of infection, replication or growth. Neighbouring rows are from separate reports. An empty or dashed field is not shown. MIC bound: limit read from a one-dose screen. A number after MIC or MFC names an inhibition level or a share of isolates.

compound	strain or isolate	mutations	method	measure	dose	value
Cc1cc(C)c2c(=O)n(CC(O)CN3CCN(c4ccccn4)CC3)sc2n1	H37Rv	-	BACTEC	inhibition	12.5 µg/mL	12%
CCCCCCCCCCOc1nc(N)nc2c1ncn2CC(=O)N[C@@H](Cc1ccccc1)C(=O)OCC	H37Rv	-	BACTEC	inhibition	6.25 µg/mL	0%
COC1CCC(OC2CCCCC2OC)CC1	-	-	-	MIC	-	>0.14 µg/mL
CCCCCC(=O)NC1C(O)OC(CO)C(O)C1O	H37Rv	-	BACTEC	MIC bound	-	>12.5 µg/mL
O=C(NNC(=O)c1ccc(F)cc1Cl)c1ccncc1	H37Rv (ATCC 27294)	-	-	MIC	-	10 µg/mL
CC(=O)NC1=NC(C)([N+](=O)[O-])CS1	H37Rv	-	resazurin	MIC bound	-	>6.25 µg/mL
COc1ccc(-c2cc(=O)c3c(OC)c(-c4cc(OC)ccc4-c4cc(=O)c5c(OC)cc(OC)cc5o4)c(OC)cc3o2)cc1	-	-	-	MIC	-	>12.5 µg/mL
Cc1cc(O)c2c(c1)C(=O)C(c1c(C)cc3c(c1O)C(=O)C=CC3=O)=CC2=O	H37Ra ATCC 25177	-	broth dilution	MIC	-	16 µg/mL
CO[C@H]1/C=C/O[C@@]2(C)Oc3c(C)c(O)c4c(O)c(cc(OCC(=O)O)c4c3C2=O)NC(=O)/C(C)=C\C=C\[C@H](C)[C@H](O)[C@@H](C)[C@@H](O)[C@@H](C)[C@H](OC(C)=O)[C@@H]1C	H37Rv	-	-	MIC	-	0.05 µg/mL
O=c1cc(-c2ccccc2)c2cc(Cl)ccc2o1	-	Rifampicin-resistant	resazurin	MIC90	-	>100 µg/mL
Cc1cc(C)c(C(=O)NNC(=O)c2c(C)cc(C)cc2C)c(C)c1	H37Rv	-	resazurin	inhibition	6.25 µg/mL	9%
COc1ccccc1N1CCN(CCCCN2C(=O)c3c(C)cc(C)nc3S2(=O)=O)CC1	H37Rv	-	BACTEC	inhibition	12.5 µg/mL	0%
O=C(NNC(=O)c1ccc(F)cc1F)c1ccncc1	H37Rv (ATCC 27294)	-	-	MIC	-	10 µg/mL
CC1=NN(CC(=O)N/N=C/c2ccc(-c3ccc(C=O)o3)cc2)C(=O)CC1	-	-	agar	MIC	-	>25 µM
COc1ccc(CC2NCCc3cc(OC)c(O)cc32)cc1	-	-	-	MIC	-	>0.2 µg/mL
S=c1oc(-c2ccncc2)nn1CN1CCc2ccccc2C1	H37Rv	-	-	MIC	-	40 µg/mL
O=c1nc2n(CCN(CCO)CCO)c3cc(Cl)c(Cl)cc3nc-2c(=O)[nH]1	H37Rv	-	BACTEC	inhibition	6.25 µg/mL	7%
CCCOc1ccc(OCC)c(NCc2cnc3nc(N)nc(N)c3c2C)c1	H37Ra	-	-	MIC	-	8 µg/mL
CC1=CC[C@@]2(C)CC[C@@](O)(C(C)C)[C@@H]2[C@@H](OCC(=O)c2ccccc2)C1	-	-	broth dilution	EC90	-	0.69 µg/mL
Clc1ccc2nc3c(c(-c4ccccc4)c2c1)SC(c1ccccc1Cl)C3	H37Rv	-	agar	MIC	-	3.82 µM
O=Nc1c(-c2ccccc2)[nH]oc1=O	H37Rv	-	resazurin	MIC bound	-	<6.25 µg/mL
NNC(=O)c1ccncc1	H37Rv	-	resazurin	MIC	-	0.156 µg/mL
c1ccc(ON2N=C(c3ccccc3)C(n3ccnc3)C2c2ccccc2)cc1	H37Rv	-	-	MIC	-	8 µg/mL
CCN(C(=O)CNCC(C)C)c1ccc(C)c(Cl)c1	H37Rv	-	BACTEC	inhibition	12.5 µg/mL	0%
Cc1cc(N=C(N)N)ccc1-c1ccc(-c2ccc(N=C(N)N)cc2C)o1	-	-	-	MIC	-	>12.5 µg/mL
Cc1cc(C)c2c(=O)n(CCCN3CCN(c4cccc(Cl)c4)CC3)sc2n1	H37Rv	-	BACTEC	inhibition	12.5 µg/mL	100%
O=c1cc(-c2ccccc2-c2cccc3c(=O)cc(-c4ccccc4)oc23)oc2ccccc12	-	-	-	MIC	-	>12.5 µg/mL
CCCOc1ccc(OCCC)c(NCc2cnc3nc(N)nc(N)c3c2C)c1	H37Ra	-	-	MIC	-	8 µg/mL
Cc1cc(C)c2c(=O)n(CC(O)CN3CCN(c4cccc(C(F)(F)F)c4)CC3)sc2n1	H37Rv	-	BACTEC	EC50	-	<12.5 µg/mL
COC1CCCCC1OC1CCCCC1C(=O)O	-	-	-	MIC	-	1 µg/mL
O=S1Nc2ccccc2[C@H]2[C@@H]1[C@H]1O[C@@H]2c2ccccc21	H37Rv	-	BACTEC	inhibition	12.5 µg/mL	92%
O=c1oc(-c2ccncc2)nn1CN1CCc2ccccc2C1	H37Rv	-	-	MIC	-	1.25 µg/mL
CC1=C(CO)C(=O)O[C@H]([C@@H](C)[C@H]2CC[C@H]3[C@@H]4C[C@H]5O[C@]56[C@@H](O)C(N5CC5)=CC(=O)C6(C)[C@H]4CC[C@]23C)C1	H37Rv	-	BACTEC	MIC	-	≥12.5 µg/mL
S=c1oc(-c2ccncc2)nn1CN1CCCCC1	H37Rv	-	-	MIC	-	40 µg/mL
Fc1ccc(ON2N=C(c3ccccc3)C(n3ccnc3)C2c2ccccc2)cc1	H37Rv	-	-	MIC	-	8 µg/mL
CN1CCN(Cn2nc(-c3ccncc3)oc2=O)CC1	H37Rv	-	-	MIC	-	2.5 µg/mL
COc1ccc(-c2oc3cc(OC)cc(OC)c3c(=O)c2-c2c(-c3ccc(OC)cc3)oc3cc(OC)cc(OC)c3c2=O)cc1	-	-	-	MIC	-	>12.5 µg/mL
CN(C)Cc1ccccc1	H37Rv	-	-	MIC	-	>1848 µM
Clc1nc(OCC2CCCCC2)c2[nH]cnc2n1	H37Rv	-	BACTEC	inhibition	6.25 µg/mL	0%
CO[C@H]1/C=C/O[C@@]2(C)Oc3c(C)c(O)c4c(O)c(c5c(c4c3C2=O)NC2(CCN(CC(C)C)CC2)N=5)=NC(=O)/C(C)=C\C=C\[C@H](C)[C@H](O)[C@@H](C)[C@@H](O)[C@@H](C)[C@H](OC(C)=O)[C@@H]1C	H37Rv-pHT (Tyr 526 mutation)	-	-	MIC	-	16 µg/mL
CC1=CC(=O)c2ccccc2C1=O	H37Ra ATCC 25177	-	broth dilution	MIC	-	8 µg/mL
Clc1ccc(C2Cc3nc4ccccc4c(-c4ccccc4)c3S2)c(Cl)c1	MDR	-	agar	MIC	-	15.3 µM
O=C(CNC(=O)c1ccccc1)N/N=C/c1ccco1	H37Rv	-	BACTEC	inhibition	12.5 µg/mL	30%
NC(=O)CC1CCC(OC2CCCCC2)CC1	-	-	-	MIC	-	0.05 µg/mL
O=c1oc(-c2ccncc2)nn1CN1CCCCC1	H37Rv	-	-	MIC	-	2.5 µg/mL
CO[C@H]1/C=C/O[C@@]2(C)Oc3c(C)c(O)c4c(=O)c(c5oc6cc(N7CCN(CC(C)C)CC7)cc(=O)c6nc5c4c3=C2O)NC(=O)/C(C)=C\C=C\[C@H](C)[C@H](O)[C@@H](C)[C@@H](O)[C@@H](C)[C@H](OC(C)=O)[C@@H]1C	H37Rv	-	-	MIC	-	0.008 µg/mL
CC(=O)OC[C@@]12C[C@@H](O)C(C)=CC1O[C@H]1[C@@H](O)[C@H](OC(C)=O)[C@]2(C)[C@@]12CO2	H37Rv	-	BACTEC	MIC	-	≥12.5 µg/mL
O=[N+]([O-])c1cccc(C2Cc3nc4ccc(Cl)cc4c(-c4ccccc4)c3S2)c1	H37Rv	-	agar	MIC	-	1.86 µM
O=C(NNC(=O)c1c(Cl)cccc1Cl)c1ccncc1	H37Rv (ATCC 27294)	-	-	MIC	-	15 µg/mL
COc1cccc(NC(=O)CC(=O)NN2C(=O)/C(=C\c3ccc(N(CCC#N)CCC#N)cc3)N=C2c2cc([N+](=O)[O-])ccc2Cl)c1	H37Rv	-	BACTEC	inhibition	12.5 µg/mL	0%
CCCCCCCCCCSc1nc(N)nc2c1ncn2CC(=O)N[C@H](Cc1ccccc1)C(=O)OC	H37Rv	-	BACTEC	inhibition	6.25 µg/mL	0%
O=[N+]([O-])c1cccc(C2Cc3nc4ccccc4c(-c4ccccc4)c3S2)c1	H37Rv	-	agar	MIC	-	4.06 µM
CCOCCOc1ccc(OCCOCC)c(NCc2cnc3nc(N)nc(N)c3c2C)c1	H37Ra	-	-	MIC	-	32 µg/mL
Cc1cc(C)c2c(OCCCCN3CCN(c4ccccc4)CC3)nsc2n1	H37Rv	-	BACTEC	EC50	-	>12.5 µg/mL
COc1cc(C(=O)OC2CC(C)=CCC3(C)CCC(O)(C(C)C)C23)ccc1O	H37Rv	-	-	MIC	-	8 µg/mL
CCCCCCCCCCCCCCCC(=O)OCCNC(=O)c1ccccc1SSc1ccccc1C(=O)NCCOC(=O)CCCCCCCCCCCCCCC	H37Rv	-	-	MIC	-	50 µg/mL
O=c1cc(-c2cccc(-c3cccc4c(=O)cc(-c5ccccc5)oc34)c2)oc2ccccc12	-	-	-	MIC	-	>12.5 µg/mL
C1CCC2C(C1)COC1CCCCC12	-	-	-	MIC	-	>0.1 µg/mL
O=C(NNC(=O)c1cc(Cl)ccc1[N+](=O)[O-])c1ccncc1	H37Rv (ATCC 27294)	-	-	MIC	-	0.5 µg/mL
CCCOc1ccc(OCC)cc1NCc1cnc2nc(N)nc(N)c2c1C	H37Ra	-	-	MIC	-	64 µg/mL
CC1CCN(Cn2nc(-c3ccncc3)oc2=S)CC1	H37Rv	-	-	MIC	-	20 µg/mL
c1ccc(-c2c3c(nc4ccccc24)CC(c2ccccc2)S3)cc1	H37Rv	-	agar	MIC	-	36.82 µM
Cc1nnc2n1N=C(CC(=O)c1ccc(O)cc1O)CN2N	H37Rv	-	BACTEC	MIC bound	-	>12.5 µg/mL
O=c1oc(-c2ccncc2)nn1CN1CCOCC1	H37Rv	-	-	MIC	-	2.5 µg/mL
Cn1c(-c2ccc(/C=N/NC(=O)c3ccc(C(=O)N/N=C/c4ccc(-c5c[n+]6ccccc6n5C)cc4)c(O)c3O)cc2)c[n+]2ccccc12.[Br-].[Br-]	H37Rv	-	BACTEC	inhibition	12.5 µg/mL	0%
Cc1cc(C)c2c(=O)n(CN3CCN(c4ccccc4)CC3)sc2n1	H37Rv	-	BACTEC	inhibition	12.5 µg/mL	0%
CC(C)c1ccc(C2Cc3nc4ccccc4c(-c4ccccc4)c3S2)cc1	H37Rv	-	agar	MIC	-	32.76 µM
COc1cc2c(cc1O)C(Cc1ccc(O)c(Oc3ccc(C4CCc5cc(OC)c(OC)cc5N4C)cc3)c1)N(C)CC2	-	-	-	MIC	-	1 µg/mL
CO[C@H]1/C=C/O[C@@]2(C)Oc3c(C)c(O)c4c(O)c(c(/C=N/N5CCN(C)CC5)c(O)c4c3C2=O)NC(=O)/C(C)=C\C=C\[C@H](C)[C@H](O)[C@@H](C)[C@@H](O)[C@@H](C)[C@H](OC(C)=O)[C@@H]1C	H37Rv	-	-	MIC	-	0.015 µg/mL
NNC(=O)N/N=C1\C(=O)N(c2ccc(Cl)c(Cl)c2)C(=O)C(=O)C1c1nc2ccccc2s1	H37Rv	-	resazurin	inhibition	6.25 µg/mL	13%
COC1CCC(OC2CCCC(OC)C2)CC1	-	-	-	MIC	-	>0.17 µg/mL
CSC(=S)NN=C1CCCCC1	INH-r	-	-	MIC	-	6.4 µg/mL
O=c1cc(-c2cccc(-c3ccc4c(=O)cc(-c5ccccc5)oc4c3)c2)oc2ccccc12	-	-	-	EC50	-	>12.5 µg/mL
O=C(Nc1ccc2oc3ccc(Cl)cc3c(=O)c2c1)c1ccc(Cl)cc1Cl	H37Rv	-	BACTEC	MIC	-	≥12.5 µg/mL
c1ccc(OC2CCCc3ncccc32)cc1	-	-	-	MIC	-	>0.05 µg/mL
O=C(Nc1ccc(Cl)cc1)Nc1nnc2nc(C3(c4nc5nnc(NC(=O)Nc6ccc(Cl)cc6)n5[nH]c4=O)Cc4ccccc4C3=O)c(=O)[nH]n12	H37Rv	-	BACTEC	MIC bound	-	>12.5 µg/mL
CCCCCCCCCCc1cn(CC(=O)OCC)nn1	H37Rv	-	MTT / broth dilution / absorbance	MIC	-	0.7 µM
O=C1C(N=Nc2ccc(Br)cc2)Sc2nc3ccccc3n21	H37Rv	-	BACTEC	MIC bound	-	>12.5 µg/mL
S=c1oc(-c2ccncc2)nn1CN1CCOCC1	H37Rv	-	-	MIC	-	40 µg/mL
CN(C)C(=S)SC1(CN2CCOCC2)COc2c(Cl)cc(Cl)cc2C1=O	H37Rv	-	BACTEC	MIC bound	-	≤128 µg/mL
CCCOc1ccc(OC)cc1NCc1cnc2nc(N)nc(N)c2c1C	H37Ra	-	-	MIC	-	16 µg/mL
CCCCCN(CCCCC)CCCNc1ccc(C)c2sc3ccccc3c(=O)c12	H37Rv	-	BACTEC	inhibition	12.5 µg/mL	100%
CC[C@H]1OC(=O)[C@H](C)[C@@H](O[C@H]2C[C@@](C)(OC)[C@@H](O)[C@H](C)O2)[C@H](C)[C@@H](O[C@@H]2O[C@H](C)C[C@H](N(C)C)[C@H]2O)[C@](C)(O)C[C@@H](C)CN(C)[C@H](C)[C@@H](O)[C@]1(C)O	71 isolates	-	-	MIC	-	3.6–57.6 µg/mL

For reference, 5 entries again:

compound,strain or isolate,mutations,method,measure,dose,value
CO[C@H]1/C=C/O[C@@]2(C)Oc3c(C)c(O)c4c(O)c(c(/C=N/N5CCN(C)CC5)c(O)c4c3C2=O)NC(=O)/C(C)=C\C=C\[C@H](C)[C@H](O)[C@@H](C)[C@@H](O)[C@@H](C)[C@H](OC(C)=O)[C@@H]1C,H37Rv,-,-,MIC,-,0.015 µg/mL
CC1CCN(Cn2nc(-c3ccncc3)oc2=S)CC1,H37Rv,-,-,MIC,-,20 µg/mL
O=C1C(N=Nc2ccc(Br)cc2)Sc2nc3ccccc3n21,H37Rv,-,BACTEC,MIC bound,-,>12.5 µg/mL
CN1CCN(Cn2nc(-c3ccncc3)oc2=O)CC1,H37Rv,-,-,MIC,-,2.5 µg/mL
COc1ccc(CC2NCCc3cc(OC)c(O)cc32)cc1,-,-,-,MIC,-,>0.2 µg/mL